The values below are quoted from earlier work in patent US8114583B2, “Switch-region: target and method for inhibition of bacterial RNA polymerase” (priority 2005, dated 2012).

As a reminder, the MIC is the lowest concentration found to suppress growth.

One data set deals with Staphylococcus aureus. As to conditions: cited from earlier work.
Data set [1] has as its system Acinetobacter calcoaceticus. The conditions noted are these: cited from earlier work.

A number of entries come with more than one value. The list is limited to them. There may be further records. Values that stand side by side do not match, cause unknown; they may come from other doses, times, organisms or constructs than stated. Where only a bound is given, the exact number is not on record here.

Regarding `CCC/C(C)=C/C=C(\C)C(=O)c1c(O)cc([C@H](C)CC/C=C/NC(=O)OC)oc1=O` [Myx, myxopyronin], the MIC in the data set on Staphylococcus aureus is ≤ 1 μg/ml and ≤ 10 μg/ml; in data set [1], ≤ 1 μg/ml and ≤ 10 μg/ml.
